{"source": "PubChem BioAssay AID504761, Drosophila RNAi Screening Center – 2011", "assay": "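Genome-wide fly cell screen for genes dengue virus requires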 (primary screen)", "system": "D.Mel-2 cells from Drosophila", "knock-down reagent": "long dsRNA against Drosophila genes", "treatment": "infection with dengue virus type 2; dose and infection time not stated", "detection": "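Cells stained for dengue envelope protein and imaged; percent of infected cells per well on duplicate plates, ranked by infection, with stained nuclei counted for cell number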", "direction": "infection score: higher = more virus-infected cells; cell count: higher = more cells in the well", "rule for the call": "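Low infection ranks in the two replicates (chance level up to 0.065) followed by a retest with a 1.5-fold or larger significant decrease, p below 0.05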", "meaning of the calls": "active = confirmed: knock-down lowers infection; inactive = not picked or not confirmed", "note": "The deposit covers about 22,000 reagents; this is a random part of those that have a named target and a result. In the full data, 116 (0.52%) were called active. 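Calls depend on retest data that are not deposited; infection was ranked per plate without normalising between plates; the unit of the infection score is not given.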 The raw values are shown without normalisation. Unmarked entries are inactive. Not stated in the record: the amount of reagent, the time to read-out."}
{"gene": "Bcat (GeneID 32297)", "amplicon": "DRSC19756", "infection score, replicate 1": 11.3, "infection score, replicate 2": 6.74, "cell count, replicate 1": 5065, "cell count, replicate 2": 5699}
{"gene": "Bcat (GeneID 32297)", "amplicon": "DRSC28324", "infection score, replicate 1": 20.4, "infection score, replicate 2": 14.4, "cell count, replicate 1": 5082, "cell count, replicate 2": 5559}
{"gene": "S-Lap4 (GeneID 326188)", "amplicon": "DRSC10957", "infection score, replicate 1": 2.36, "infection score, replicate 2": 2.42, "cell count, replicate 1": 6058, "cell count, replicate 2": 5668}
{"gene": "S-Lap4 (GeneID 326188)", "amplicon": "DRSC25977", "infection score, replicate 1": 3.6, "infection score, replicate 2": 4.61, "cell count, replicate 1": 6560, "cell count, replicate 2": 6186}
{"gene": "Nup98-96 (GeneID 42816)", "amplicon": "DRSC14209", "infection score, replicate 1": 13.1, "infection score, replicate 2": 5.74, "cell count, replicate 1": 3791, "cell count, replicate 2": 3920}
{"gene": "Nup98-96 (GeneID 42816)", "amplicon": "DRSC14210", "infection score, replicate 1": 13.2, "infection score, replicate 2": 5.57, "cell count, replicate 1": 1015, "cell count, replicate 2": 539}
{"gene": "CG8067 (GeneID 36552)", "amplicon": "DRSC07065", "infection score, replicate 1": 12.1, "infection score, replicate 2": 6.64, "cell count, replicate 1": 5869, "cell count, replicate 2": 5890}
{"gene": "CG2291 (GeneID 35804)", "amplicon": "DRSC06836", "infection score, replicate 1": 5.7, "infection score, replicate 2": 13.3, "cell count, replicate 1": 6685, "cell count, replicate 2": 3235}

The list goes on, starting with the last 3 of the part before.
{"gene": "Nup98-96 (GeneID 42816)", "amplicon": "DRSC14210", "infection score, replicate 1": 13.2, "infection score, replicate 2": 5.57, "cell count, replicate 1": 1015, "cell count, replicate 2": 539}
{"gene": "CG8067 (GeneID 36552)", "amplicon": "DRSC07065", "infection score, replicate 1": 12.1, "infection score, replicate 2": 6.64, "cell count, replicate 1": 5869, "cell count, replicate 2": 5890}
{"gene": "CG2291 (GeneID 35804)", "amplicon": "DRSC06836", "infection score, replicate 1": 5.7, "infection score, replicate 2": 13.3, "cell count, replicate 1": 6685, "cell count, replicate 2": 3235}
{"gene": "CG9356 (GeneID 41122)", "amplicon": "DRSC16476", "infection score, replicate 1": 8.72, "infection score, replicate 2": 5.76, "cell count, replicate 1": 6596, "cell count, replicate 2": 6826}
{"gene": "CG7824 (GeneID 43530)", "amplicon": "DRSC16321", "infection score, replicate 1": 4.83, "infection score, replicate 2": 3.72, "cell count, replicate 1": 6127, "cell count, replicate 2": 6585}
{"gene": "CG31287 (GeneID 318663)", "amplicon": "DRSC13138", "infection score, replicate 1": 2.25, "infection score, replicate 2": 0.36, "cell count, replicate 1": 5903, "cell count, replicate 2": 6119}
{"gene": "sha (GeneID 36213)", "amplicon": "DRSC06331", "infection score, replicate 2": 19.3, "cell count, replicate 1": 539, "cell count, replicate 2": 4873}
{"gene": "Smg5 (GeneID 34804)", "amplicon": "DRSC03124", "infection score, replicate 1": 27.8, "infection score, replicate 2": 15.2, "cell count, replicate 1": 4205, "cell count, replicate 2": 4630}
{"gene": "Smg5 (GeneID 34804)", "amplicon": "DRSC27834", "infection score, replicate 1": 12.6, "infection score, replicate 2": 13.7, "cell count, replicate 1": 3325, "cell count, replicate 2": 4080}
{"gene": "Ae2 (GeneID 39147)", "amplicon": "DRSC08997", "infection score, replicate 1": 19.6, "infection score, replicate 2": 1.29, "cell count, replicate 1": 3255, "cell count, replicate 2": 4729}
{"gene": "Ae2 (GeneID 39147)", "amplicon": "DRSC10969", "infection score, replicate 1": 6.22, "infection score, replicate 2": 7.18, "cell count, replicate 1": 6352, "cell count, replicate 2": 6253}
{"gene": "Dip-C (GeneID 47769)", "amplicon": "DRSC15855", "infection score, replicate 1": 10.6, "infection score, replicate 2": 18.5, "cell count, replicate 1": 3966, "cell count, replicate 2": 5760}
{"gene": "mRpL47 (GeneID 41141)", "amplicon": "DRSC16827", "infection score, replicate 1": 2.89, "infection score, replicate 2": 12.9, "cell count, replicate 1": 5735, "cell count, replicate 2": 5412}
{"gene": "Alp4 (GeneID 43671)", "amplicon": "DRSC14116", "infection score, replicate 1": 9.82, "infection score, replicate 2": 4.02, "cell count, replicate 1": 5660, "cell count, replicate 2": 6370}
{"gene": "CG42296 (GeneID 53544)", "amplicon": "DRSC00394", "infection score, replicate 1": 20, "infection score, replicate 2": 8.27, "cell count, replicate 1": 6911, "cell count, replicate 2": 6715}
{"gene": "CG10936 (GeneID 37000)", "amplicon": "DRSC05669", "infection score, replicate 1": 1.92, "infection score, replicate 2": 3.21, "cell count, replicate 1": 6563, "cell count, replicate 2": 6101}
{"gene": "CG10936 (GeneID 37000)", "amplicon": "DRSC05670", "infection score, replicate 1": 6.62, "infection score, replicate 2": 3.47, "cell count, replicate 1": 6144, "cell count, replicate 2": 6026}
{"gene": "CG10936 (GeneID 37000)", "amplicon": "DRSC06018", "infection score, replicate 1": 3.83, "infection score, replicate 2": 15.8, "cell count, replicate 1": 6033, "cell count, replicate 2": 6539}
